Experimental data: patent US9102754B2, “Immunomodulatory compositions and methods for treating disease with modified host defense peptides” (priority 2007, dated 2015)

Test system: trypsin
Experiment: Proteolytic digest with trypsin, HPLC quantification
Details: peptide 1 mg/mL, trypsin 0.1 mg/ml

Q: With “D-amino acids of NH2-GIRIIPVIIPGYKKWARLIKRGLSRLG-COOH (D-amino acids, retro-inverso) [RI-BMAP-28, retro-inversed form of BMAP-28]” as the substance, how does the “intactness after trypsin digestion” value (after eight hours of digestion, 37° C.) read?
A: Its value is “remained completely intact”.

Q: How did the “time within which all molecules were cleaved at least once by trypsin” value (50 mM Tris pH 7.2, 37° C.) turn out when “H-GLRSLGRKILRAWKKYGPIIVPIIRIG-OH [BMAP-28, natural host defense peptide, a 27 amino acid proteolytic product of the antibacterial peptide BMAP-28 precursor protein]” was run?
A: The value was ≤ 30 min.
